# Only a part is listed here, and it is no random draw. Active and inactive are the calls of the source.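 How the source made its calls: active means activation above its plate's cutoff, the mean activation of the plate's test wells plus 3 SD (cut at about 12% in these data); inactive means the rest.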
# Sequences of proteins named here, by UniProt entry; tags and fusion partners are left off.
# UniProt Q8TDD5, whole entry: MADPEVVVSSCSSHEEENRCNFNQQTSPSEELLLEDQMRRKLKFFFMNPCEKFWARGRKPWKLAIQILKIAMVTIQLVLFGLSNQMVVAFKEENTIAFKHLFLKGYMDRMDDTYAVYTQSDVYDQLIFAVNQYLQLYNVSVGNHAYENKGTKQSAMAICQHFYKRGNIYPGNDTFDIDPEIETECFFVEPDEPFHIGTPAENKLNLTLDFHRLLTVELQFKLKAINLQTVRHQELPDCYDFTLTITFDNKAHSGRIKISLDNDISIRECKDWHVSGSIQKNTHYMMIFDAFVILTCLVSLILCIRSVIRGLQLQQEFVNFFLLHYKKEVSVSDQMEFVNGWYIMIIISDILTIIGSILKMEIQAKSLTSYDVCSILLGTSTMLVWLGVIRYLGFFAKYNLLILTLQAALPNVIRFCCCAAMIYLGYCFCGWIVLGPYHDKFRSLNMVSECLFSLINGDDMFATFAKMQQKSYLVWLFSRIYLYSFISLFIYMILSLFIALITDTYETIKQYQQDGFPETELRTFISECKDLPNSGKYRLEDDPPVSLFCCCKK
# Molecular target: Mucolipin-3 (Homo sapiens) (UniProt Q8TDD5)
# Test: human TRPML3 channel agonists, primary screen, cell-based, HEK293 TRPML3-YFP, Fluo-8 calcium fluorescence, 3 µM (AID 1448);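 further: 0% = DMSO only wells and 100% = carbachol wells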
# Conditions: at 3 µM, hits give high values, 100% = the carbachol control signal
# Procedure, shortened: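 Material: HEK293 cells stably carrying human TRPML3-YFP; compound dosing: single dose, 3 µM final nominal compound, 0.3% DMSO final; incubation: 1-h 37 °C dye load, 5-s basal, 120-s post-compound reads; technique: Fluo-8 intracellular calcium fluorescence, excitation 470-495 nm, emission 515-575 nm; read-out basis: percent activation from peak-to-basal fluorescence ratio, scaled between DMSO and carbachol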
row,Compound,activation
1,CCCOc1ccc(NP(C)(=O)Oc2ccc(Cl)cc2)cc1 (stereo not drawn),inactive: -1.61%
2,CP(=O)(Nc1ccc(SC(F)(F)F)cc1)Oc1ccccc1 (stereo not drawn),inactive: 1.22%
3,CN1CCCCC1COC(=O)C1(O)c2ccccc2CCc2ccccc21 (stereo not drawn),inactive: 0.77%
4,COc1ccccc1OP(C)(=O)Nc1c(C)cccc1C (stereo not drawn),inactive: -0.4%
5,CCOC(=O)C(CC)C1=NC(C)(C)Cc2ccccc21.O=[N+]([O-])c1cc([N+](=O)[O-])c(O)c([N+](=O)[O-])c1 (stereo not drawn),inactive: -0.34%
6,O=[N+]([O-])c1cc([N+](=O)[O-])c(Nc2nnnn2CCO)c([N+](=O)[O-])c1,inactive: 0.25%
7,Cc1nc2ccc3ccccc3c2s1.O=[N+]([O-])c1cc([N+](=O)[O-])c(O)c([N+](=O)[O-])c1,inactive: -0.03%
8,O=[N+]([O-])c1cc([N+](=O)[O-])c(-n2nnc3ccccc32)c([N+](=O)[O-])c1,inactive: 0.52%
9,Cc1ccc(C)c(NP(C)(=O)Oc2ccccc2)c1 (stereo not drawn),inactive: -0.15%
10,Cc1cc(C)cc(OP(C)(=O)Nc2ccccn2)c1 (stereo not drawn),inactive: -0.19%
11,CP(=O)(Nc1cccc(Br)c1)Oc1ccccc1 (stereo not drawn),inactive: 0.63%
12,CCOC(=O)c1ccc(NP(C)(=O)Oc2cc(C)cc(C)c2)cc1 (stereo not drawn),inactive: -0.19%
13,Cc1cc(C)cc(OP(C)(=O)Nc2ccc(C)cc2C)c1 (stereo not drawn),inactive: -0.91%
14,COc1ccccc1OP(C)(=O)Nc1cccc(Br)c1 (stereo not drawn),inactive: 0.38%
15,CC1=NCCc2c1[nH]c1ccccc21.O=[N+]([O-])c1cc([N+](=O)[O-])c(O)c([N+](=O)[O-])c1,inactive: 0.09%
16,O=C(O)c1cccc(Nc2c([N+](=O)[O-])cc([N+](=O)[O-])cc2[N+](=O)[O-])c1,inactive: 0.36%
17,Cc1cc(C)cc(OP(C)(N)=O)c1 (stereo not drawn),inactive: 0.3%
18,COc1ccc(OP(C)(=O)Nc2cccc(F)c2)cc1 (stereo not drawn),inactive: 0.21%
19,COc1ccccc1OP(C)(=O)Nc1cc(Cl)ccc1C (stereo not drawn),inactive: 0.38%
20,Cc1ccc(NP(C)(=O)Oc2ccccc2)c(C)c1 (stereo not drawn),inactive: 0.2%
21,COc1ccccc1OP(C)(=O)Nc1ccc(C)cc1 (stereo not drawn),inactive: 0.52%

row,Compound,activation
1,CCOC(=O)c1ccc(NP(C)(=O)Oc2ccccc2)cc1 (stereo not drawn),inactive: 0.92%
2,O=[N+]([O-])c1ccc2c(c1)C=Nc1ccccc1O2,inactive: 0.22%
3,Cc1cccc(C)c1OP(C)(N)=O (stereo not drawn),inactive: 0.69%
4,CC(C)(C)c1ccc(OP(C)(=O)Nc2ccc(SC(F)(F)F)cc2)cc1 (stereo not drawn),inactive: 0.36%
5,CCN(CC)CCCOC(=O)C(O)(c1ccccc1)c1ccccc1,inactive: -0.25%
6,CP(=O)(Nc1ccccn1)Oc1ccc(Cl)cc1 (stereo not drawn),inactive: 0.75%
7,CCOC(=O)c1ccc(NP(C)(=O)Oc2ccc(OC)cc2)cc1 (stereo not drawn),inactive: -0.4%
8,CCOP(C)(=S)SCC(=O)NC(C)C(=O)O (stereo not drawn),inactive: 0.35%
9,Cc1cc(C)cc(OP(C)(=O)Nc2ccc(SC(F)(F)F)cc2)c1 (stereo not drawn),inactive: -0.32%
10,CP(=O)(NC(=O)Nc1ccccc1)Oc1ccccc1 (stereo not drawn),inactive: -0.48%
11,CCc1ccc(OP(C)(=O)N2CCN(c3ccc([N+](=O)[O-])cc3)CC2)cc1 (stereo not drawn),inactive: 2.01%
12,CP(=O)(Oc1ccccc1)OC(c1ccccc1)C(F)(F)F (stereo not drawn),inactive: 0.31%
13,CP(=O)(Nc1ccc(SC(F)(F)F)cc1)Oc1ccc(Cl)cc1 (stereo not drawn),inactive: 1.17%
14,Cc1cccc(C)c1OP(C)(=O)Nc1ccc(SC(F)(F)F)cc1 (stereo not drawn),inactive: 1.17%
15,CP(=O)(Nc1ccccc1Br)Oc1ccccc1 (stereo not drawn),inactive: 0.06%
16,COc1ccccc1OP(C)(=O)Nc1ccccc1 (stereo not drawn),inactive: 0.61%
17,CP(=S)(Nn1cnnc1)Oc1ccccc1 (stereo not drawn),inactive: 0.62%
18,CCOC(=O)c1ccc(NP(C)(=O)Oc2ccc(Cl)cc2)cc1 (stereo not drawn),inactive: -0.47%
19,CP(=O)(OC12CC3CC(CC(C3)C1)C2)OC12CC3CC(CC(C3)C1)C2,inactive: 0.05%
20,CN(C)C(=O)c1c([N+](=O)[O-])cc([N+](=O)[O-])cc1[N+](=O)[O-],inactive: 0.61%
21,COc1ccccc1OP(C)(=O)Nc1ccccc1Br (stereo not drawn),inactive: -0.09%

row,Compound,activation
1,CC(C)(C)c1ccc(OP(C)(=O)O)cc1,inactive: 0.45%
2,CP(=O)(Nc1ccc(Cl)cc1)Oc1ccc(F)cc1 (stereo not drawn),inactive: 0.43%
3,O=C(OCCCN1CCCC1)C(O)(c1ccccc1)C1CCCCC1 (stereo not drawn),inactive: -0.34%
4,COc1ccccc1OP(C)(=O)Nc1c(C)n(C)n(-c2ccccc2)c1=O (stereo not drawn),inactive: 0.49%
5,CCc1ccc(OP(C)(=O)Nc2cccnc2)cc1 (stereo not drawn),inactive: 0.52%
6,CP(=O)(Oc1ccccc1)N1CCOC1=O (stereo not drawn),inactive: 0.6%
7,COc1ccc(OP(C)(=O)Nc2ccc(Br)cc2)cc1 (stereo not drawn),inactive: 1.18%
8,CCN(CC)CC(O)COC(=O)C(O)(c1ccccc1)C1CCCCC1 (stereo not drawn),inactive: 0.9%
9,COc1ccccc1OP(C)(=O)Nc1ccc(C)cc1C (stereo not drawn),inactive: 0.71%
10,CP(=O)(Nc1ccccn1)Oc1ccccc1 (stereo not drawn),inactive: 1.01%
11,CCc1ccc(OP(C)(=O)O)cc1,inactive: 0.27%
12,Cc1c(NP(C)(=O)Oc2ccc(C(C)C)cc2)c(=O)n(-c2ccccc2)n1C (stereo not drawn),inactive: -0.24%
13,O=[N+]([O-])c1cc([N+](=O)[O-])c(Nc2ccccn2)c([N+](=O)[O-])c1,inactive: 1.46%
14,COc1ccc(OP(C)(=O)Nc2ccccn2)cc1 (stereo not drawn),inactive: 0.69%
15,CN(C)CCOC(=O)C(O)(c1ccccc1)C1CCCC1 (stereo not drawn),inactive: -0.35%
16,COc1ccccc1OP(C)(=O)Nc1ccc(Br)cc1 (stereo not drawn),inactive: 0.24%
17,CP(=O)(Nc1ccc(Cl)cc1Cl)Oc1ccccc1 (stereo not drawn),inactive: -0.35%
18,CP(=O)(OCCOc1ccccc1)OCCOc1ccccc1,inactive: 0.89%
19,Cc1nc2ccc3ccccc3c2o1.O=[N+]([O-])c1cc([N+](=O)[O-])c(O)c([N+](=O)[O-])c1,inactive: 0.48%
20,COc1ccccc1OP(C)(=O)Nc1ccc(C)c(C)c1 (stereo not drawn),inactive: 0.68%
21,COc1ccc(OP(C)(=O)Nc2ccccc2Br)cc1 (stereo not drawn),inactive: -0.31%

row,Compound,activation
1,Cc1cc(C)cc(OP(C)(=O)Nc2cccc(C(F)(F)F)c2)c1 (stereo not drawn),inactive: -0.94%
2,CP(=O)(Nc1ccccc1)Oc1ccc(F)cc1 (stereo not drawn),inactive: -0.23%
3,CCCCCOc1ccc(NP(C)(=O)Oc2ccc(Cl)cc2Cl)cc1 (stereo not drawn),inactive: -0.37%
4,CCN(CC)CCCOC(=O)C(O)(c1ccccc1)C1CCCCC1 (stereo not drawn),inactive: 1.22%
5,CCOC(=O)c1ccc(NP(C)(=O)Oc2ccc(F)cc2)cc1 (stereo not drawn),inactive: 0.12%
6,COc1ccc(OP(C)(=O)Nc2ccc(SC(F)(F)F)cc2)cc1 (stereo not drawn),inactive: 0.93%
7,O=C(OC1CN2CCC1CC2)c1ccc([N+](=O)[O-])cc1 (stereo not drawn),inactive: 0.75%
8,O=C(OCCN1CCN(CCOCc2ccccc2)CC1)C(O)(c1ccccc1)c1ccccc1,inactive: 0.57%
9,CP(=O)(Nc1ccccc1F)Oc1ccccc1 (stereo not drawn),inactive: -0.73%
10,CC(C)c1ccc(OP(C)(=O)Nc2ccc(SC(F)(F)F)cc2)cc1 (stereo not drawn),inactive: 0.08%
11,Cc1ccccc1NP(C)(=O)Nc1ccccc1C,inactive: 0.51%
12,CP(=O)(Nc1ccc2c(c1)OCCO2)Oc1ccccc1 (stereo not drawn),inactive: 0.71%
13,CCOP(C)(=S)SCC(=O)NC(C)(CC)C(=O)O (stereo not drawn),inactive: 0.74%
14,CP(=O)(Nc1ccc(SC(F)(F)F)cc1)Oc1ccc(F)cc1 (stereo not drawn),inactive: 1%
15,O=[N+]([O-])c1ccc(OP2(=O)COCCO2)cc1 (stereo not drawn),inactive: 0.32%
16,Cc1cc(-c2cccc3ccccc23)c(C)cn1.O=[N+]([O-])c1cc([N+](=O)[O-])c(O)c([N+](=O)[O-])c1,inactive: -1.77%
17,O=[N+]([O-])c1cc([N+](=O)[O-])c(NCC2CCS(=O)(=O)C2)c([N+](=O)[O-])c1 (stereo not drawn),inactive: 0.65%
18,CN(C)CCOC(=O)C(O)(c1ccccc1)C1CCCCC1 (stereo not drawn),inactive: -0.5%
19,COc1ccc(NP(C)(=O)Oc2ccccc2OC)cc1 (stereo not drawn),inactive: 0.38%
20,COc1ccc(OP(C)(=O)Nc2cccc(Br)c2)cc1 (stereo not drawn),inactive: -0.4%

# Reference: PubChem BioAssay AID1448 (The Scripps Research Institute Molecular Screening Center, 2008)
